Measured values taken from BindingDB's records for doi:10.1021/jm049276y (Abbott Laboratories, 2005).

Chains of the proteins cited; added tags and fusions are not shown.
UniProt P06820, whole entry: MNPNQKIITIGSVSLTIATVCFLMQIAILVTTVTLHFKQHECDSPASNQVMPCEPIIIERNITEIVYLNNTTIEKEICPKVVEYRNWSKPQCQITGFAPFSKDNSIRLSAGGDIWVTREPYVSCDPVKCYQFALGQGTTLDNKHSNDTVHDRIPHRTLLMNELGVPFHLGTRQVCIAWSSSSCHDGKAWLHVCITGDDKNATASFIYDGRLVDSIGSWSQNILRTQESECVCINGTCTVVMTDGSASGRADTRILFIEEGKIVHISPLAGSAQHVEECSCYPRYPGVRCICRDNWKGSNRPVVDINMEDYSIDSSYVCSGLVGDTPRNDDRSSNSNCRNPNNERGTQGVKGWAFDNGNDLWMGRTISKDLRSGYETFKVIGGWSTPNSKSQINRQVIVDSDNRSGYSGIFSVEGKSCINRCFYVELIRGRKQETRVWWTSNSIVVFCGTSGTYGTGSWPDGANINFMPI

Biological target: Neuraminidase (Influenza A virus (strain A/Tokyo/3/1967 H2N2), UniProt P06820)
Details: pH 7.5; 22 °C

For `CC(=O)N[C@@H](CC(C)C)[C@@H]1N[C@@H](C(=O)O)C[C@H]1c1cc[nH]n1` (racemic) [(2R,4R,5R)-5-[(1S)-1-acetamido-3-methylbutyl]-4-(1H-pyrazol-3-yl)pyrrolidine-2-carboxylic acid], the Ki was 45 nM.
